PubChem BioAssay AID1259414 – Drosophila RNAi Screening Center, 2018
Test: 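Genome-wide screen for host control of endosymbiont load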 (primary screen). System: Drosophila JW18 cells infected with Wolbachia. Reagents: long dsRNA against Drosophila genes, 0.25 µg dsRNA per well of a 384-well plate. Time to read-out: 5 days. Challenge: cells persistently infected with Wolbachia before knock-down; no added drug. Read-out: 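Automated imaging of bacterial rRNA staining divided by host cell count, reported as plate-normalised robust z-score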. Direction: Wolbachia per cell robust z: higher = more Wolbachia per host cell than the plate typical. Rule for the call: 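Active if absolute robust z reaches 1.5 in two or more of three replicates, leaving out multi- or no-target dsRNAs, genes unexpressed in JW18 and A1 wells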.
In all, the deposit lists about 24,000 reagents; this is a random part of those that have a named target and a result. In the full data, about 1,210 (5%) are marked active. 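Inactive calls also include excluded dsRNAs with several or no targets, genes unexpressed in JW18, and well A1, regardless of score.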 Names joined by + are all predicted targets of the reagent. Reagent sequences are not shown.

{"gene knocked down":"Hip14","DRSC id":"DRSC10570","Wolbachia per cell robust z, rep 1":-2.1,"Wolbachia per cell robust z, rep 2":0.579,"Wolbachia per cell robust z, rep 3":-0.392,"call":"inactive"}
{"gene knocked down":"CG3588","DRSC id":"DRSC18473","Wolbachia per cell robust z, rep 1":-0.682,"Wolbachia per cell robust z, rep 2":-3.14,"Wolbachia per cell robust z, rep 3":-0.55,"call":"inactive"}
{"gene knocked down":"CG3588","DRSC id":"DRSC24598","Wolbachia per cell robust z, rep 1":-0.324,"Wolbachia per cell robust z, rep 2":0.217,"Wolbachia per cell robust z, rep 3":1.68,"call":"inactive"}
{"gene knocked down":"CG2975","DRSC id":"DRSC37907","Wolbachia per cell robust z, rep 1":1.26,"Wolbachia per cell robust z, rep 2":1.31,"Wolbachia per cell robust z, rep 3":1.29,"call":"inactive"}
{"gene knocked down":"Gr22b","DRSC id":"DRSC20911","Wolbachia per cell robust z, rep 1":1.79,"Wolbachia per cell robust z, rep 2":-1.32,"Wolbachia per cell robust z, rep 3":-1.43,"call":"inactive"}
{"gene knocked down":"Dpm1","DRSC id":"DRSC02018","Wolbachia per cell robust z, rep 1":0.334,"Wolbachia per cell robust z, rep 2":0.52,"Wolbachia per cell robust z, rep 3":0.531,"call":"inactive"}
{"gene knocked down":"gw","DRSC id":"DRSC17135","Wolbachia per cell robust z, rep 1":0.76,"Wolbachia per cell robust z, rep 2":2.79,"Wolbachia per cell robust z, rep 3":1.27,"call":"inactive"}
{"gene knocked down":"gw","DRSC id":"DRSC17160","Wolbachia per cell robust z, rep 1":2.64,"Wolbachia per cell robust z, rep 2":2.61,"Wolbachia per cell robust z, rep 3":3.59,"call":"active"}
{"gene knocked down":"gw","DRSC id":"DRSC23497","Wolbachia per cell robust z, rep 1":2.12,"Wolbachia per cell robust z, rep 2":4.09,"Wolbachia per cell robust z, rep 3":4.7,"call":"active"}
{"gene knocked down":"Tbcd","DRSC id":"DRSC00273","Wolbachia per cell robust z, rep 1":-0.204,"Wolbachia per cell robust z, rep 2":-7.62,"Wolbachia per cell robust z, rep 3":0.528,"call":"inactive"}
{"gene knocked down":"l(3)psg2","DRSC id":"DRSC10484","Wolbachia per cell robust z, rep 1":-0.123,"Wolbachia per cell robust z, rep 2":0.0843,"Wolbachia per cell robust z, rep 3":-1.1,"call":"inactive"}
{"gene knocked down":"l(3)psg2","DRSC id":"DRSC24075","Wolbachia per cell robust z, rep 1":-1.71,"Wolbachia per cell robust z, rep 2":-1.77,"Wolbachia per cell robust z, rep 3":0.0373,"call":"active"}
{"gene knocked down":"Cpr67Fb","DRSC id":"DRSC10314","Wolbachia per cell robust z, rep 1":-0.255,"Wolbachia per cell robust z, rep 2":0.0349,"Wolbachia per cell robust z, rep 3":-0.519,"call":"inactive"}
{"gene knocked down":"Cpr67Fb","DRSC id":"DRSC29696","Wolbachia per cell robust z, rep 1":-0.577,"Wolbachia per cell robust z, rep 2":0.774,"Wolbachia per cell robust z, rep 3":-0.112,"call":"inactive"}
{"gene knocked down":"CG34436","DRSC id":"DRSC15164","Wolbachia per cell robust z, rep 1":0.732,"Wolbachia per cell robust z, rep 2":0.733,"Wolbachia per cell robust z, rep 3":-5.33,"call":"inactive"}
{"gene knocked down":"CG14042 + SP555","DRSC id":"DRSC02367","Wolbachia per cell robust z, rep 1":0.554,"Wolbachia per cell robust z, rep 2":-8.02,"Wolbachia per cell robust z, rep 3":0.681,"call":"inactive"}
{"gene knocked down":"VhaM9.7-a","DRSC id":"DRSC08289","Wolbachia per cell robust z, rep 1":-1.07,"Wolbachia per cell robust z, rep 2":-0.226,"Wolbachia per cell robust z, rep 3":-1.45,"call":"inactive"}
{"gene knocked down":"VhaM9.7-a","DRSC id":"DRSC28340","Wolbachia per cell robust z, rep 1":-1.79,"Wolbachia per cell robust z, rep 2":-0.959,"Wolbachia per cell robust z, rep 3":-1.67,"call":"inactive"}
{"gene knocked down":"CG14562","DRSC id":"DRSC11723","Wolbachia per cell robust z, rep 1":-1.11,"Wolbachia per cell robust z, rep 2":0.7,"Wolbachia per cell robust z, rep 3":-0.269,"call":"inactive"}
{"gene knocked down":"yellow-g","DRSC id":"DRSC08575","Wolbachia per cell robust z, rep 1":0.953,"Wolbachia per cell robust z, rep 2":0.819,"Wolbachia per cell robust z, rep 3":1.29,"call":"inactive"}
{"gene knocked down":"CG4053","DRSC id":"DRSC15538","Wolbachia per cell robust z, rep 1":-0.21,"Wolbachia per cell robust z, rep 2":0.827,"Wolbachia per cell robust z, rep 3":1.14,"call":"inactive"}
{"gene knocked down":"CG4053","DRSC id":"DRSC29364","Wolbachia per cell robust z, rep 1":0.741,"Wolbachia per cell robust z, rep 2":1.26,"Wolbachia per cell robust z, rep 3":0.444,"call":"inactive"}
{"gene knocked down":"Orct2","DRSC id":"DRSC14613","Wolbachia per cell robust z, rep 1":-0.827,"Wolbachia per cell robust z, rep 2":-2.42,"Wolbachia per cell robust z, rep 3":0.137,"call":"inactive"}
{"gene knocked down":"Orct2","DRSC id":"DRSC24714","Wolbachia per cell robust z, rep 1":-1.04,"Wolbachia per cell robust z, rep 2":-1.54,"Wolbachia per cell robust z, rep 3":-1.74,"call":"active"}
